Experimental data: paper PMC7466129, “Solid Lipid Nanoparticles for Duodenum Targeted Oral Delivery of Tilmicosin” (Pharmaceutics, 2020)

Experiment: Palatability feeding experiment of pig
Assay type: in vivo
Details: pigs; tilmicosin 400 mg/kg feed; decreased from about 1.4 kg/d

CC[C@H]1OC(=O)C[C@@H](O)[C@H](C)[C@@H](O[C@@H]2O[C@H](C)[C@@H](O)[C@H](N(C)C)[C@H]2O)[C@@H](CCN2C[C@H](C)C[C@H](C)C2)C[C@@H](C)C(=O)/C=C/C(C)=C/[C@@H]1CO[C@@H]1O[C@H](C)[C@@H](O)[C@@H](OC)[C@H]1OC [tilmicosin, Tilmicosin]
average daily feed intake during the feeding experiment: about 0.9 kg/d
